Results of unrelated studies side by side (data: NIAID ChemDB).

All rows: tests in culture; species: HIV-1; measure: EC50

ECn: concentration that inhibits the pathogen or its effect by n%.

| SMILES | strain | mutations | cell line | read by | result |
|---|---|---|---|---|---|
| Cc1cn([C@H]2C[C@H](N=[N+]=[N-])[C@@H](CO)O2)c(=O)[nH]c1=O | A031-1 |  | MAGI + MAGI-CCR5 | β-galactosidase | 0.024 µM |
| Cc1ccnc2c1NC(=O)c1cccnc1N2C1CC1 | NL4-3 | RT-L74V | CEM + CEM-SS | XTT | 0.02 µM |
| NC(=S)c1c(N)n(COC(CO)CO)c2ncnc(N)c12 |  |  | MT-2 + MT2 | cytopathic effect / XTT | >320 µM |
| Cc1cc(Cl)cc(S(=O)(=O)c2cccc(N)c2C#N)c1 |  | RT-V106A | HeLa + HELA CD4+ | β-galactosidase | 0.0015 µM |
| COc1cc(/C=C/C(=O)NCCc2ccc(O)cc2)ccc1O | MC99 deltaTAT/REV |  | 1A2 | syncytia / β-galactosidase | 3.2 µg/mL |
| CC(C)(C)C(=O)OCOP(=O)(COC1(Cn2cnc3cnc(N)nc32)CC1)OCOC(=O)C(C)(C)C | NL4-3 |  | HT4 + HeLa | plaque count | <10 µM |
| CCCc1cc(=O)oc2c3c(c4c(c12)OC(C)(C)C=C4)O[C@H](C)[C@@H](C)[C@@H]3O | HEPT-resistant (RT P236L) | RT-P236L | CEM + CEM-SS | cytopathic effect / XTT | 0.6 µM |
| O=c1[nH]cnc2c1ncn2[C@H]1CC[C@@H](CO)O1 | HIVRTMF (RT L74V) | RT-L74V T215Y | HT4 + HT4 LacZ-1 | plaque count | 10 µM |
| O=C(/C=C/c1ccc(O)cc1)NCCc1ccc(O)cc1 | MC99 deltaTAT/REV |  | 1A2 | syncytia / β-galactosidase | <3.9 µg/mL |
| c1cc(CN2CCCNCCNCCCNCC2)ccc1CN1CCCNCCNCCCNCC1 | HE R5X4 |  | U87 (CD4+ CCR5+) + U87 | p24 | >0.1 µM |
| CCCc1cc(=O)oc2c3c(c4c(c12)OC(C)(C)C=C4)O[C@@H](C)[C@H](C)[C@@H]3O | IIIB |  | CEMx174 + CEM | XTT | 0.15 µM |
| O=c1[nH]cnc2c1ncn2[C@H]1CC[C@@H](CO)O1 | SF162 R5 |  | PBL (activated) + PBL | RT activity | 11 µM |
| NC(=O)c1c(Br)n(COCCO)c2ncnc(N)c12 |  |  | MT-2 + MT2 | cytopathic effect / XTT | >300 µM |
| CSc1c(C)c(SC)n2ccncc12 |  |  | ACH-2(PMA+) + ACH2 | p24 | <15 µM |
| Cc1cc(C#N)cc(C)c1Oc1nc(Nc2ccc(C#N)cc2)nc(N)c1Br | 94ug 114.1.6 D (WT) |  | HEK293T | luciferase | 0.00247 µM |
| N#Cc1c(Br)n([C@@H]2O[C@H](CO)[C@@H](O)[C@H]2O)c2ncnc(N)c12 |  |  | MT-2 + MT2 | cytopathic effect / XTT | >100 µM |
| C[C@H]1C[C@]1(Cn1cnc2c(N)ncnc21)OCP(=O)(O)O | NL4-3 |  | HT4 + HeLa | plaque count | >100 µM |
| Cc1cn([C@H]2C[C@H](N=[N+]=[N-])[C@@H](CO)O2)c(=O)[nH]c1=O | BaL |  | Monocytes + Monocyte | p24 / ELISA | 0.001 µg/mL |
| Cc1cn([C@H]2C[C@H](N=[N+]=[N-])[C@@H](CO)O2)c(=O)[nH]c1=O | 7253 CLADE A CLADE A |  | PBMC | p24 | 0.008 µM |
| NC(=O)c1c(N)n(COC(CO)CO)c2ncnc(N)c12 |  |  | MT-2 + MT2 | cytopathic effect / XTT | >340 µM |
| COc1cc(C(F)(F)F)cc(S(=O)(=O)c2cccc(N)c2C#N)c1 |  | RT-K103N P225H | HeLa + HELA CD4+ | β-galactosidase | 5.5 µM |
| O=S(=O)(c1ccccc1)c1ccccc1 | Costatolide-resistant (RT L100I T139I) | RT-L100I T139I | CEM + CEM-SS | XTT | 85 µM |
| Cc1cn([C@H]2C=C[C@@H](CO)O2)c(=O)[nH]c1=O | BZ X4 |  | PBL (resting) + PBL | RT activity | >4 µM |
| CC(=O)N1CCC(C(=O)N(CCCN2CCC(Cc3ccc(C(N)=O)cc3)CC2)c2ccc(C)c(Cl)c2)CC1 | R5X4 subtype B_1 recombinant |  | U87 (CD4+ CCR5+) + U87 | luciferase | 0.007 µM |
| Cc1ccnc2c1NC(=O)c1cccnc1N2C1CC1 | NL4-3 |  | ACH2 + TZM-bl | luciferase | 0.03153 µM |
| Cc1cn([C@H]2C[C@H](N=[N+]=[N-])[C@@H](CO)O2)c(=O)[nH]c1=O | RF |  | CEM + CEM-SS | XTT | 0.004 µM |
| NC(=S)c1c(N)n(COCCO)c2ncnc(N)c12 |  |  | MT-2 + MT2 | cytopathic effect / XTT | >350 µM |
| Cc1cc(Br)cc(S(=O)(=O)c2cccc(N)c2C#N)c1 |  | RT-K103N P225H | HeLa + HELA CD4+ | β-galactosidase | 3.3 µM |
| Cc1cn([C@H]2C[C@H](N=[N+]=[N-])[C@@H](CO)O2)c(=O)[nH]c1=O | BZ X4 |  | PBL (resting) + PBL | RT activity | 4 µM |
| Nc1ccn([C@H]2CC[C@@H](CO)O2)c(=O)n1 | HXB2 | RT-M184I | HELA/CD4 + HELA CD4+ | plaque count | 0.4 µM |
| NC(=O)c1c(Br)n(COC(CO)CO)c2ncnc(N)c12 |  |  | MT-2 + MT2 | cytopathic effect / XTT | >280 µM |
| Cc1cc(O)cc(S(=O)(=O)c2cccc(N)c2C#N)c1 |  | RT-V108I Y181C | HeLa + HELA CD4+ | β-galactosidase | 36 µM |
| CCCCCCC#CC#CCCCCCCCCCCCCCc1ccco1 | MC99 deltaTAT/REV |  | 1A2 | syncytia / β-galactosidase | 43.3 µg/mL |
| Nc1nc(=O)n([C@@H]2CS[C@H](CO)O2)cc1F | HXB2 | RT-M184I | HELA/CD4 + HELA CD4+ | plaque count | 9.29 µM |
| O=C1N(Cc2ccc(CO)cc2)[C@H](Cc2ccccc2)[C@H](O)[C@@H](O)[C@@H](Cc2ccccc2)N1Cc1ccc(CO)cc1 | Clinical isolate V |  | PBMC | p24 | 0.07 µM |
| CCc1c(C(=O)c2cc(C)cc(C)c2)n(CC2CC=CC2)c(=O)[nH]c1=O | IIIB |  | CEMx174 + CEM | cytopathic effect / XTT | 0.003 µM |
| O=C(Nc1cc(S(=O)(=O)O)cc2cc(S(=O)(=O)O)c(N=Nc3ccc(N=Nc4c(S(=O)(=O)O)cc5cc(S(=O)(=O)O)cc(NC(=O)c6cccc(Cl)c6Cl)c5c4O)cc3)c(O)c12)c1ccc(Cl)cc1Cl | IIIB/V3-RF |  | SupT1 + Sup-T1 |  | 0.7 µg/mL |
| Cc1nnc(C(=O)NC(C)(C)c2nc(C(=O)NCc3ccc(F)cc3)c(O)c(=O)n2C)o1 | SF162 |  | ACH2 + TZM-bl | luciferase | 0.00009 µM |
| O=c1c2ccccc2n2nnc3ccc(NCCCN4CCN(CCCNc5ccc6nnn7c8ccccc8c(=O)c5c67)CC4)c1c32 | CLADE D |  | PBL | p24 | 0.072 µM |

The first 4 rows once more:

| SMILES | strain | mutations | cell line | read by | result |
|---|---|---|---|---|---|
| Cc1cn([C@H]2C[C@H](N=[N+]=[N-])[C@@H](CO)O2)c(=O)[nH]c1=O | A031-1 |  | MAGI + MAGI-CCR5 | β-galactosidase | 0.024 µM |
| Cc1ccnc2c1NC(=O)c1cccnc1N2C1CC1 | NL4-3 | RT-L74V | CEM + CEM-SS | XTT | 0.02 µM |
| NC(=S)c1c(N)n(COC(CO)CO)c2ncnc(N)c12 |  |  | MT-2 + MT2 | cytopathic effect / XTT | >320 µM |
| Cc1cc(Cl)cc(S(=O)(=O)c2cccc(N)c2C#N)c1 |  | RT-V106A | HeLa + HELA CD4+ | β-galactosidase | 0.0015 µM |

Lines come from different laboratories, so protocols vary. An empty or dashed field is not shown.